The test concerns the target wt. Put plainly: ELISA.

Substance C144 returned an EC50 of 0.44 µg/mL. As for CC12.1, the EC50 was 0.24 µg/mL. Next, EY6A: 0.52 µg/mL; P2B-2F6: 0.3 µg/mL. S2H13 registered a 50% effective concentration (EC50) of 0.56 µg/mL.
